PubChem BioAssay AID1259414, Drosophila RNAi Screening Center | 2018
In all, the deposit lists about 24,000 reagents; below is a random part of those with a known target gene and a result. Over the whole deposit, about 1,210 (5%) were called active. 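Inactive calls also include excluded dsRNAs with several or no targets, genes unexpressed in JW18, and well A1, regardless of score.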 A plus sign joins genes that one reagent is predicted to hit.

Aim: 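Genome-wide screen for host control of endosymbiont load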 (primary screen)
Cells: Drosophila JW18 cells infected with Wolbachia
Reagents: long dsRNA against Drosophila genes, 0.25 µg dsRNA per well of a 384-well plate
Time to read-out: 5 days
Treatment: cells persistently infected with Wolbachia before knock-down; no added drug
Read-out: 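Imaged fluorescence in situ signal for Wolbachia 23S rRNA per DAPI-counted host cell, given as a robust z-score within each plate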
Direction: Wolbachia per cell robust z: higher = more Wolbachia per host cell than the plate typical
Call rule: 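Hit when robust z is 1.5 or more, or -1.5 or less, in at least two of three replicates; excludes dsRNAs with several or no targets, genes not expressed in JW18 and well A1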

no.	predicted target	DRSC id	Wolbachia per cell robust z, rep 1	Wolbachia per cell robust z, rep 2	Wolbachia per cell robust z, rep 3	call
1	cid	DRSC05429	-0.213	0.253	-3.19	inactive
2	cid	DRSC07592	-3.53	0.32	-1.3	inactive
3	CAH16	DRSC15371	0.825	0.852	0.481	inactive
4	CAH16	DRSC27986	1.62	0.417	1.28	inactive
5	CG31743 + CG34313	DRSC02781	-0.581	-0.564	0.264	inactive
6	CG31743 + CG34313	DRSC02782	-0.517	0.8	-0.175	inactive
7	CG15125	DRSC06547	0.0439	-1.41	-1	inactive
8	CG16935	DRSC06638	-1.24	1.81	0.832	inactive
9	Tsp42Ej	DRSC06113	0.362	-3.31	0.735	inactive
10	Tsp42Ej	DRSC28269	-0.512	-1.34	-0.194	inactive
11	wit	DRSC08741	1.3	0.104	-0.169	inactive
12	wit	DRSC26091	-0.376	-1.31	0.539	inactive
13	CG7568	DRSC16259	-0.188	0.823	0.652	inactive
14	CG7568	DRSC28378	-0.542	-2.84	-3.69	active
15	CG13766	DRSC02271	0.945	-3.79	-6.13	active
16	CG13766	DRSC29049	-1.38	-0.853	-0.362	inactive
17	CG32198	DRSC09553	-1.24	-1.73	-0.899	inactive
18	CG32198	DRSC27630	-7.01	0.728	-1.36	inactive
19	CG1146	DRSC08189	0.0835	0.357	-0.771	inactive
20	CG1146	DRSC25486	0.89	0.502	0.134	inactive
21	Sac1	DRSC08622	0.636	-0.081	-0.281	inactive
22	Sac1	DRSC26886	0.0666	0.984	0.107	inactive
23	RhoGAP18B	DRSC19763	0.756	0.718	1.28	inactive
24	RhoGAP18B	DRSC20047	0.672	0.145	0.51	inactive
25	RhoGAP18B	DRSC20048	-0.226	0.000275	-0.282	inactive
26	RhoGAP18B	DRSC20049	-0.999	-0.827	-1.46	inactive
27	RhoGAP18B	DRSC25093	0.378	1.44	-0.386	inactive
28	Ubr3	DRSC17987	0.73	0.0308	0.852	inactive
29	Ubr3	DRSC17997	0.353	-2.7	0.511	inactive
30	Ubr3	DRSC27473	-5.43	-0.25	-0.762	inactive
31	Ubr3	DRSC29072	1.24	-0.0589	-0.361	inactive

4 of these entries, set out differently.
predicted target	DRSC id	Wolbachia per cell robust z, rep 1	Wolbachia per cell robust z, rep 2	Wolbachia per cell robust z, rep 3	call
Tsp42Ej	DRSC28269	-0.512	-1.34	-0.194	inactive
wit	DRSC08741	1.3	0.104	-0.169	inactive
wit	DRSC26091	-0.376	-1.31	0.539	inactive
CG7568	DRSC16259	-0.188	0.823	0.652	inactive
